Reference: PubChem BioAssay AID1259414 (Drosophila RNAi Screening Center, 2018)

Purpose: 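Genome-wide screen for host control of endosymbiont load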 (primary screen)
Cell system: Drosophila JW18 cells infected with Wolbachia
Knock-down reagent: long dsRNA against Drosophila genes, 0.25 µg dsRNA per well of a 384-well plate
Duration: 5 days
Treatment: cells persistently infected with Wolbachia before knock-down; no added drug
Detection: 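Automated imaging of bacterial rRNA staining divided by host cell count, reported as plate-normalised robust z-score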
Scale: Wolbachia per cell robust z: higher = more Wolbachia per host cell than the plate typical
Call rule: 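Active if absolute robust z reaches 1.5 in two or more of three replicates, leaving out multi- or no-target dsRNAs, genes unexpressed in JW18 and A1 wells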
The deposit covers about 24,000 reagents; this is an unselected part of those with a known target gene and a result. Of all reagents, about 1,210 (5%) were called active. 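Inactive calls also include excluded dsRNAs with several or no targets, genes unexpressed in JW18, and well A1, regardless of score.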

The opening 3 records, to show the layout:
| gene | amplicon | Wolbachia per cell robust z, rep 1 | Wolbachia per cell robust z, rep 2 | Wolbachia per cell robust z, rep 3 | outcome |
| --- | --- | --- | --- | --- | --- |
| CG5984 | DRSC15930 | 0.197 | 0.676 | 0.263 | inactive |
| CG30056 | DRSC21752 | 0.811 | 0.707 | -0.174 | inactive |
| Drip | DRSC07405 | -2.13 | 0.154 | -0.674 | inactive |

The list itself, from the first entry:
| gene | amplicon | Wolbachia per cell robust z, rep 1 | Wolbachia per cell robust z, rep 2 | Wolbachia per cell robust z, rep 3 | outcome |
| --- | --- | --- | --- | --- | --- |
| CG5984 | DRSC15930 | 0.197 | 0.676 | 0.263 | inactive |
| CG30056 | DRSC21752 | 0.811 | 0.707 | -0.174 | inactive |
| Drip | DRSC07405 | -2.13 | 0.154 | -0.674 | inactive |
| CG1840 | DRSC19806 | 0.498 | 0.556 | 0.348 | inactive |
| CG1840 | DRSC25112 | -0.828 | -0.0719 | -0.299 | inactive |
| dap | DRSC07601 | -1.23 | -0.953 | -0.228 | inactive |
| dap | DRSC40812 | 0.611 | -0.276 | -1.3 | inactive |
| CG1602 | DRSC06601 | 0.0704 | 0.288 | -0.0432 | inactive |
| Amy-p | DRSC06786 | -1.05 | -0.398 | 0.53 | inactive |
| CG14232 | DRSC19588 | 1.28 | -2.58 | -0.624 | inactive |
| CG14232 | DRSC27714 | 0.787 | 1.21 | 1.22 | inactive |
| CG43121 | DRSC10457 | -7.38 | 0.178 | 0.399 | inactive |
| CG8839 | DRSC07285 | -0.00387 | 1.08 | 0.784 | inactive |
| Ote | DRSC07498 | -0.925 | -0.256 | -0.0738 | inactive |
| CG13041 | DRSC09922 | -2.7 | -1.73 | -0.223 | inactive |
| CG13041 | DRSC26793 | -0.27 | 1.26 | -0.541 | inactive |
| Trf2 | DRSC18727 | 0.288 | 0.142 | 0.307 | inactive |
| Trf2 | DRSC29152 | 0.838 | 0.818 | 1.92 | inactive |
| or | DRSC04329 | -0.521 | 0.745 | -0.846 | inactive |
| or | DRSC29241 | -0.615 | 0.139 | 0.142 | inactive |
| CG5860 | DRSC15896 | 0.367 | 0.719 | -0.424 | inactive |
| Gga | DRSC18260 | 0.803 | -2.32 | 0.509 | inactive |
| Gga | DRSC27761 | 1.26 | 0.245 | -0.32 | inactive |
| CG4691 | DRSC01950 | 0.292 | -2.36 | -0.475 | inactive |
| CG4691 | DRSC27902 | -0.836 | 0.864 | -0.736 | inactive |
| CG32061 | DRSC22605 | -0.627 | -0.09 | 0.526 | inactive |
| Rpt6R | DRSC15431 | -0.112 | 0.879 | -0.389 | inactive |
| wol | DRSC03077 | 1.25 | -0.187 | 0.0216 | inactive |
| wol | DRSC27227 | -0.0827 | -0.926 | 0.551 | inactive |
